# Laboratory results published in PubChem BioAssay AID1430 (University of Pittsburgh Molecular Library Screening Center, 2008).
# The entries are a selection whose mix differs from that of the whole data set. Activity calls are given as the source filed them.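 The calls were made as follows: active = inhibition of 50% or more in the single-dose primary screen; inactive = inhibition below 50%.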
# Tested on: hexokinase 1 [Trypanosoma brucei]
# Experiment: Trypanosoma brucei hexokinase 1 inhibitors, primary screen, biochemical, G6PDH-coupled NADH absorbance, MLSCN library (AID 1430)
# Details: recombinant TbHK1, G6PDH-coupled NADH A340; at 10 µM; active compounds read high
row,Structure (SMILES),inhibition
1,COP1(=S)c2c(C)nn(CCC#N)c2N=C(c2ccc(F)cc2)N1C (stereo not given),inactive: 4.91%
2,O=C(COc1ccccc1)OC1CN2CCC1CC2 (stereo not given),inactive: -3.88%
3,CCOC(=O)c1ccc(NC(=O)C(C)(CCl)SC)cc1 (stereo not given),inactive: -4.42%
4,CCC(C)N(CC(C)C)C(=S)SC(NC(C)=O)C(Cl)(Cl)Cl (stereo not given),inactive: 4.69%
5,CCOC(=O)Nc1ccc([As](=O)(O)O)c(O)c1,inactive: -8.35%
6,Cc1cc(SC(NC(=O)c2ccccc2)C(Cl)(Cl)Cl)nc(C(C)C)n1 (stereo not given),inactive: -7.22%
7,CCOC(=O)Nc1cccc([As](=O)(O)O)c1,inactive: 6.31%
8,O=P(Nc1ccccn1)(c1cccc2ccccc12)c1cccc2ccccc12,inactive: 3.94%
9,Cc1cc(SC(NC=O)C(Cl)(Cl)Cl)ncn1 (stereo not given),inactive: -2.12%
10,O=[N+]([O-])c1ccc(Nc2ccc(Oc3ccc([N+](=O)[O-])cc3[N+](=O)[O-])cc2)c([N+](=O)[O-])c1,inactive: -25.3%
11,C[As](=O)(O)c1cccc(C(=O)O)c1,inactive: -4.68%
12,O=[As](O)(c1ccc(O)cc1)c1ccccc1O,inactive: -1.17%
13,Cc1ccc(OP(=O)(Nc2ccc([N+](=O)[O-])cn2)Oc2ccc(C)cc2)cc1,inactive: -16.4%
14,Cc1ccc2nc3c(c(C)c2c1)CC(C(Cl)Cl)S3 (stereo not given),inactive: -2.46%
15,ClCCSc1nnc(-c2cccnc2)o1,inactive: -0.955%
16,CC(C)c1ccc(OP(=O)(Nc2ccccn2)Oc2ccccc2F)cc1 (stereo not given),inactive: 1.31%
17,CC(C)NC(=O)NP(=O)(Oc1ccccc1)Oc1ccccc1,inactive: 4.57%
18,CCN(CC)C(=S)SC(NC=O)C(Cl)(Cl)Cl (stereo not given),inactive: -0.357%
19,O=[N+]([O-])c1cc([N+](=O)[O-])c(-c2ccn[nH]2)s1,inactive: -23.9%
20,Cc1c2c(nc3ccccc13)SC(C(Cl)Cl)C2 (stereo not given),inactive: -8.91%
21,O=C(OC1CN2CCC1CC2)C12CC3CC(CC(C3)C1)C2 (stereo not given),inactive: 9.63%
22,Cc1cc(=O)[nH]c(N[N+](=O)[O-])n1,inactive: -5.3%
23,COc1ccc2nc(NP(=O)(c3ccccc3)c3ccccc3)sc2c1,inactive: -1.64%
24,COc1cc(I)ccc1[As](=O)(O)O,inactive: -2.76%
25,COc1ccc(N/C(=N/P(=O)(N2CCOCC2)N2CCOCC2)N2CCOCC2)cc1,inactive: 2.63%
